Patent US20210330736A1 (UNIVERSITEIT VAN AMSTERDAM, priority 2018, published 2021)

Molecular target: mouse GUCY2C (endogenous, in mouse striatal slices) (mouse, UniProt Q3UWA6)
Experiment: cell-based or functional assay

NDCCELCCNVACTGCL [peptide 4]
P-S40 TH/TTH, fold change (average), mouse striatal slices, 10 µM, 1 h (WES): 1 fold change (average)
